According to ChEMBL document CHEMBL3797100, “1,6-Bis[(benzyloxy)methyl]uracil derivatives-Novel antivirals with activity against HIV-1 and influenza H1N1 virus” (Bioorg Med Chem, 2016):

What was measured:
[1] = target: Human immunodeficiency virus type 1 reverse transcriptase (Human immunodeficiency virus 1, UniProt Q72547, K103N/Y181C); assay: Inhibition of HIV1 3B reverse transcriptase p66/p51 K103N/Y181C mutant using poly(rA) template and measured after 40 mins by picogreen based spectrofluorometry
[2] = target: Human immunodeficiency virus type 1 reverse transcriptase (Human immunodeficiency virus 1, UniProt Q72547, V106A); assay: Inhibition of HIV1 reverse transcriptase p66/p51 V106A mutant using poly(rA) template and measured after 40 mins by picogreen based spectrofluorometry
[3] = target: Human immunodeficiency virus type 1 reverse transcriptase (Human immunodeficiency virus 1, UniProt Q72547, K103N); assay: Inhibition of HIV1 reverse transcriptase p66/p51 K103N mutant using poly(rA) template and measured after 40 mins by picogreen based spectrofluorometry
[4] = target: Human immunodeficiency virus type 1 reverse transcriptase (Human immunodeficiency virus 1, UniProt Q72547, Y181C); assay: Inhibition of HIV1 reverse transcriptase p66/p51 Y181C mutant using poly(rA) template and measured after 40 mins by picogreen based spectrofluorometry

## Cc1cc(C#N)cc(C)c1Oc1nc(Nc2ccc(C#N)cc2)nc(N)c1Br [ETRAVIRINE]
[1]
  IC50: 0.05 µM
[2]
  IC50: 0.03 µM
[3]
  IC50: 0.01 µM
[4]
  IC50: 0.03 µM
